From publication PMC7402102

Legend:
[1] = tested on: CC(=O)SCCNC(=O)CCNC(=O)[C@H](O)C(C)(C)COP(=O)(O)OP(=O)(O)OC[C@H]1O[C@@H](n2cnc3c(N)ncnc32)[C@H](O)[C@@H]1OP(=O)(O)O; assay: purified protein; conditions: 20 mM succinate, pH 7.0, 30 °C, 2 mM MgCl2, coupled to SCS; pH 7.0; 30.0 °C
[2] = tested on: CCC(=O)SCCNC(=O)CCNC(=O)[C@H](O)C(C)(C)COP(=O)(O)OP(=O)(O)OC[C@H]1O[C@@H](n2cnc3c(N)ncnc32)[C@H](O)[C@@H]1OP(=O)(O)O; assay: purified protein; conditions: succinate co-substrate, coupled to SCS; fit with substrate inhibition

With “TbASCT (Trypanosoma brucei brucei TREU927; S419N)” the Km [1] was 46 ± 7 µM, the kcat [1] was 104 s⁻¹ and the Km [2] was 18 ± 2 µM. For the same substance, the kcat [2] was 42.9 ± 2.38 s⁻¹.
